For two molecules, Ratio CC50/EC50 results are on record in ChEMBL document CHEMBL6087437 (J Med Chem, 2025).

The structures appear in SMILES notation.

The nature of this data set: Selectivity index, ratio of CC50 for human A549 cells to EC50 for pseudotyped Ebola virus expressing glycoprotein infected in human A549 cells. In kind it is toxicity, cell-based.

As for `O=C(Nc1ccc(N2CCC3(CCC3)CC2)c(C(F)(F)F)c1)c1ccc(CN2C[C@@H]3C[C@H]2CO3)nc1`, the Ratio CC50/EC50 was found to be 234.

In the case of `O=C(Nc1ccc(N2CCC3(CCC3)CC2)c(C(F)(F)F)c1)c1ccc(CN2C[C@H]3C[C@@H]2CO3)nc1`, the Ratio CC50/EC50 is 104.
